Experimental findings from publication PMC8523698, “Preclinical characterization of an intravenous coronavirus 3CL protease inhibitor for the potential treatment of COVID19” (Nature Communications, 2021) are described below.

For this assay, the system named is SARS-CoV-2 USA-WA1/2020. Kind of assay: Ad5-hACE2 SARS-CoV-2 mouse infection model. The assay is classed as in vivo, BALB/c mice. The settings on record: 100 mg/kg S.C. BID from day 0; day 3.

With `COc1cccc2[nH]c(C(=O)N[C@@H](CC(C)C)C(=O)N[C@@H](C[C@@H]3CCNC3=O)C(=O)CO)cc12` [PF-00835231], the “reduction in lung viral titers” value was “≈ 1.5 log10”.
